{"source": "PubChem BioAssay AID504761, Drosophila RNAi Screening Center – 2011", "test": "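Insect host genes that dengue virus relies on to spread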 (primary screen)", "cell system": "D.Mel-2 cells from Drosophila", "reagent": "long dsRNA against Drosophila genes", "treatment": "infection with dengue virus type 2; dose and infection time not stated", "measured": "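Cells stained for dengue envelope protein and imaged; percent of infected cells per well on duplicate plates, ranked by infection, with stained nuclei counted for cell number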", "reading the numbers": "infection score: higher = more virus-infected cells; cell count: higher = more cells in the well", "call rule": "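Very low infection ranking in both replicate wells (chance probability at most 0.065), then a retest showing infection dropped 1.5-fold or more at p below 0.05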", "calls": "active = confirmed: knock-down lowers infection; inactive = not picked or not confirmed", "note": "The screen tested about 22,000 reagents; this is an unselected part of those with a known target gene and a result. Of all reagents, 116 (0.52%) were called active. 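Calls depend on retest data that are not deposited; infection was ranked per plate without normalising between plates; the unit of the infection score is not given.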 Raw values are not corrected between plates. Names joined by + are all predicted targets of the reagent. Further read-outs or replicates are left out here. Reagent sequences are not shown. Not given: the amount of reagent, the time to read-out."}
{"predicted target":"Cyp309a1","PubChem SID":"SID104180539","infection score, replicate 1":1.08,"cell count, replicate 1":6478,"activity call":"inactive"}
{"predicted target":"ena","PubChem SID":"SID104185571","infection score, replicate 1":0.06,"cell count, replicate 1":6442,"activity call":"inactive"}
{"predicted target":"ena","PubChem SID":"SID104187402","infection score, replicate 1":2.44,"cell count, replicate 1":6918,"activity call":"inactive"}
{"predicted target":"ena","PubChem SID":"SID104203939","infection score, replicate 1":0.91,"cell count, replicate 1":5712,"activity call":"inactive"}
{"predicted target":"Mco4","PubChem SID":"SID104199853","infection score, replicate 1":6.78,"cell count, replicate 1":6713,"activity call":"inactive"}
{"predicted target":"Mco4","PubChem SID":"SID104206476","infection score, replicate 1":12.9,"cell count, replicate 1":5874,"activity call":"inactive"}
{"predicted target":"l(3)72Dp","PubChem SID":"SID104190269","infection score, replicate 1":1.38,"cell count, replicate 1":5863,"activity call":"inactive"}
{"predicted target":"CG6454","PubChem SID":"SID104195836","infection score, replicate 1":3.36,"cell count, replicate 1":6363,"activity call":"inactive"}
{"predicted target":"CG6454","PubChem SID":"SID104203295","infection score, replicate 1":3.77,"cell count, replicate 1":5705,"activity call":"inactive"}
{"predicted target":"Hk","PubChem SID":"SID104197430","infection score, replicate 1":6.98,"cell count, replicate 1":5570,"activity call":"inactive"}
{"predicted target":"Hk","PubChem SID":"SID104203531","infection score, replicate 1":2.66,"cell count, replicate 1":5939,"activity call":"inactive"}
{"predicted target":"Pgls","PubChem SID":"SID104199561","infection score, replicate 1":1.54,"cell count, replicate 1":6547,"activity call":"inactive"}
{"predicted target":"Pgd","PubChem SID":"SID104198489","infection score, replicate 1":1.36,"cell count, replicate 1":6539,"activity call":"inactive"}
{"predicted target":"SelG","PubChem SID":"SID104199600","infection score, replicate 1":3.51,"cell count, replicate 1":6554,"activity call":"inactive"}
{"predicted target":"SelG","PubChem SID":"SID104203752","infection score, replicate 1":1.53,"cell count, replicate 1":6398,"activity call":"inactive"}
{"predicted target":"Mppe","PubChem SID":"SID104187088","infection score, replicate 1":24.1,"cell count, replicate 1":2542,"activity call":"inactive"}

Only “infection score, replicate 1”, for 2 of the entries above:
Pgd [SID104198489]	1.36
SelG [SID104199600]	3.51

Additional records follow:
{"predicted target":"CG7011 + Prp31","PubChem SID":"SID104190552","infection score, replicate 1":14.3,"cell count, replicate 1":3338,"activity call":"inactive"}
{"predicted target":"CG43658","PubChem SID":"SID104199903","infection score, replicate 1":1.54,"cell count, replicate 1":6799,"activity call":"inactive"}
{"predicted target":"CG43658","PubChem SID":"SID104203991","infection score, replicate 1":25.4,"cell count, replicate 1":6088,"activity call":"inactive"}
{"predicted target":"ND-B8","PubChem SID":"SID104180241","infection score, replicate 1":2.14,"cell count, replicate 1":6960,"activity call":"inactive"}
{"predicted target":"CG3163","PubChem SID":"SID104184133","infection score, replicate 1":26.5,"cell count, replicate 1":5733,"activity call":"inactive"}
{"predicted target":"CG3163","PubChem SID":"SID104206786","cell count, replicate 1":385,"activity call":"inactive"}
{"predicted target":"ND-39","PubChem SID":"SID104191583","infection score, replicate 1":13.2,"cell count, replicate 1":4928,"activity call":"inactive"}
{"predicted target":"ND-39","PubChem SID":"SID104206936","infection score, replicate 1":3.34,"cell count, replicate 1":479,"activity call":"inactive"}
{"predicted target":"Vps16B","PubChem SID":"SID104195096","cell count, replicate 1":325,"activity call":"inactive"}
{"predicted target":"eIF4A","PubChem SID":"SID104183318","infection score, replicate 1":4.63,"cell count, replicate 1":2181,"activity call":"inactive"}
{"predicted target":"eIF4A","PubChem SID":"SID104204587","infection score, replicate 1":6.97,"cell count, replicate 1":2353,"activity call":"inactive"}
